# PubChem BioAssay AID624099 | ICCB-Longwood – 2012
# Screen: 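Human genes that papillomavirus E2 requires to repress the HPV18 LCR promoter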 (primary screen)
# Cells: human C33A cervical carcinoma cells (HPV-negative) stably expressing BPV1 E2 and an HPV18 LCR luciferase reporter
# Knock-down reagent: siRNA pool against human genes, 40 nM
# Timing: 72 h
# Read-out: 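Per-well luciferase luminescence, z-scored on each plate against the plate mean and SD with control wells left out, then averaged across three replicate plates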
# Reading the numbers: mean z-score and z-score: higher = stronger reporter signal, weaker E2 silencing
# Active means: 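Hit if mean z-score reaches 2 and two or more of three replicate z-scores also reach 2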
# Here is one part, drawn at random, of about 21,000 reagents tested. In the full data, 497 (2.4%) got an active call. 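Higher z means weaker E2 silencing; only reporter increases were scored, and knock-downs that hurt cell survival may mask genuine repressor factors.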 A number with no mark means an inactive call. Reagents against one gene are numbered here.
gene,reagent,mean z-score,"z-score, replicate A","z-score, replicate B","z-score, replicate C"
KRT2,1,-0.77,-0.65,-0.9,-0.77
ZFR,1,1.08,1.24,1.12,0.88
AMTN,1,0.87,1.24,0.91,0.46
PIH1D1,1,0.1,-0.2,0.07,0.42
ARHGEF10L,1,-0.97,-1.14,-1.17,-0.6
RAC1P4,1,0.54,0.18,0.73,0.71
TMIGD2,1,0.16,-0.23,0.33,0.39
FAM217A,1,0.37,0.3,0.45,0.2
PAXIP1,1,0.51,0.92,0.24,0.36
LOC284788,1,0.3,0.18,0.38,0.35
ZSCAN5A,1,0.74,0.7,0.85,0.68
RBMY1B,1,-0.26,0.08,-0.37,-0.5
LIF,1,0.14,-0.05,0.46,0.02
AXL,1,0.12,0.33,0,0.02
HMOX1,1,-0.19,-0.5,-0.29,0.21
GPR160,1,0.68,0.65,0.51,0.89
OTOA,1,1.44,1.49,1.45,1.38
EIF4E,1,1.4,1.52,1.41,1.28
TDRD10,1,-2.13,-2.4,-1.89,-2.11
FIBP,1,-0.14,0.05,-0.41,-0.05
ALKBH2,1,0.7,0.79,0.71,0.59
LOC401589,1,0.55,0.82,0.94,-0.1
KHDC4,1,-1.1,-1.25,-1.11,-0.93
ENG,1,-0.44,-0.04,-0.56,-0.72
OSBPL7,1,-0.38,-0.56,0.05,-0.63
KTI12,1,0.36,0.2,0.37,0.52
PPT2,1,-1.43,-1.26,-1.38,-1.65
ATP10B,1,0.99,1.45,0.85,0.67
EFL1P1,1,-0.97,-0.74,-1.12,-1.05
LOC391733 (retired record),1,0.14,-0.14,0.21,0.36
LAMB3,1,-0.94,-1.06,-0.96,-0.8
ANO9,1,-1,-1.21,-0.54,-1.26
TMEM45A,1,0.65,0.98,0.61,0.35
LOC402720 (retired record),1,0.54,0.35,0.26,1.03
TTLL5,1,0.59,0.69,0.6,0.48
C6,1,1.41,1.57,1.41,1.27
SCNN1A,1,-0.47,-0.58,-0.23,-0.59
CPNE7,1,-0.24,-0.36,-0.15,-0.21
ERN2,1,0.05,0.09,-0.11,0.18
ERN2,2,1.1,0.95,1.34,1
EVPLL,1,0.17,-0.04,0.37,0.18
UNC93B6,1,0.84,0.7,1.35,0.46
LOC389338 (retired record),1,-0.86,-0.86,-0.48,-1.24
CATSPERQ,1,-0.86,-0.89,-0.83,-0.87
CSRNP2,1,1.39,1.71,1.44,1.03
C1QTNF9B,1,0.36,0.31,0.64,0.13
CENPX,1,0,-0.08,0.37,-0.28
NUP62CL,1,-0.31,-0.15,-0.45,-0.33
RARRES1,1,1.51,1.48,1.8,1.26
C22orf23,1,1.06,1.05,1.05,1.09
FBXW5,1,-0.35,-0.33,-0.18,-0.53
GRIN2D,1,0.28,0.23,0.24,0.38
FLT1,1,-1.12,-1.26,-1.12,-0.98
S100PBP,1,-0.19,0.06,-0.54,-0.09
RXFP3,1,-0.5,-0.46,-0.9,-0.14
DCAF8,1,0.22,-0.38,0.48,0.55
CEBPZ,1,-0.73,-0.97,-0.55,-0.67

No new results follow: entries from further up.
gene,reagent,mean z-score,"z-score, replicate A","z-score, replicate B","z-score, replicate C"
CENPX,1,0,-0.08,0.37,-0.28
NUP62CL,1,-0.31,-0.15,-0.45,-0.33
RARRES1,1,1.51,1.48,1.8,1.26
C22orf23,1,1.06,1.05,1.05,1.09
FBXW5,1,-0.35,-0.33,-0.18,-0.53
GRIN2D,1,0.28,0.23,0.24,0.38
FLT1,1,-1.12,-1.26,-1.12,-0.98
